We go through one compound from patent US8507530B2, “Pyridine derivatives substituted by heterocyclic ring and phosphonoamino group, and anti-fungal agent containing same” (dated 2013).

In this experiment the test system is C. albicans E81022 strain. As to the kind of experiment: Experimental systemic candidal infection model in mice. As to conditions: caudal vein, twice every 6 hours, female ICR mice infected i.v. with C. albicans E81022, observed until 14 days after infection.

As for `O=P([O-])([O-])Nc1ncccc1-c1cc(Cc2ccc(COc3ccccn3)cc2)no1.[Na+].[Na+]`, the “Mean Survival Days” value by setting is: (2.5 mg/kg) 13.6 days; (10 mg/kg) 13.2 days.
